This data set has as its system microorganisms already present in the seawater. Kind of data set: Marine BODIS biodegradation test in natural seawater. The settings on record: for biodegraded over 28 days: natural seawater, 20° C.±1° C.

With C36 dimer acid [reference compound], the “biodegraded over 28 days” value came to 12%. The “maximum biodegradation during the 70 day study” value (test extended for an additional 42 days (70 days)) is given as 22%.

Consider `CCCCCCC(CC=CCCCCCCCC(=O)O)OC(=O)CCCCCCCC(=O)O` (centres unmarked) [Azelaic ricinoleate, azelaic ricinoleate], for which the “biodegraded over 28 days” value is recorded as 57%. The “maximum biodegradation during the study” value (42 day study) stood at 58%. Moreover, the “biodegraded on day 42” value (test extended for an additional 14 days, day 42, final day of study) was determined as 57%.

Source of the values: patent US10253236B2, “Environmental friendly well treatment fluids comprising an ester” (AMRIL AG, priority 2013, dated 2019).
